Structure probing of HIV-1 leader RNA with DMS

The 5' region of HIV-1 NL4-3 RNA (positions 1-437):
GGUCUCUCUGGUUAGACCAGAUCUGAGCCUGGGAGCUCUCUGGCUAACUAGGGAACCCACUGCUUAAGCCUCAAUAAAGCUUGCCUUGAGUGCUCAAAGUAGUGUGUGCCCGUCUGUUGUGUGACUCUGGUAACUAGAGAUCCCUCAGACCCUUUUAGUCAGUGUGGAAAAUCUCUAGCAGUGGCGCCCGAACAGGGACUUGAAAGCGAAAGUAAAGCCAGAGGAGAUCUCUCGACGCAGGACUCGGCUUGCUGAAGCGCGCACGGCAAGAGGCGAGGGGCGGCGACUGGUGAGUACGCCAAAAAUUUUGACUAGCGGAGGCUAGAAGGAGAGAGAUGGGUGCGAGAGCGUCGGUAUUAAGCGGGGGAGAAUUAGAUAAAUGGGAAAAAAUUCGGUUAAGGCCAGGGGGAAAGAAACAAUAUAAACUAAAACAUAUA

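Mutant RNA libraries with 1G, 2G or 3G starts, with or without cap, were folded at 37 °C for 30 min. Monomer and dimer bands were cut from native gels after folding in high salt (300 mM KCl, 5 mM MgCl2) or low salt (40 mM KCl, 0.1 mM MgCl2). Gel slices were treated with 170 mM dimethyl sulfate for 15 min at 37 °C and read by mutational profiling against an ethanol control.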

Values are winsor-normalised DMS reactivities of A and C; higher means more reactive, usually unpaired. One numbering serves 1G, 2G and 3G. A position is written with its base.

A19 (domain TAR) read 1G uncapped low-salt monomer 0.05; 3G capped high-salt dimer 0.03.
A21 (domain TAR) read 1G uncapped low-salt monomer 0.60; 3G capped high-salt dimer 0.56.
C23 (domain TAR) read 1G uncapped low-salt monomer 1.18; 3G capped high-salt dimer 1.22.
A26 (domain TAR) read 1G uncapped low-salt monomer 0.21; 3G capped high-salt dimer 0.08.
C28 (domain TAR) read 1G uncapped low-salt monomer 0.05; 3G capped high-salt dimer 0.03.
C29 (domain TAR) read 1G uncapped low-salt monomer 0.14; 3G capped high-salt dimer 0.07.
A34 (domain TAR) read 1G uncapped low-salt monomer 1.00; 3G capped high-salt dimer 1.05.
C36 (domain TAR) read 1G uncapped low-salt monomer 0.06; 3G capped high-salt dimer 0.03.
C38 (domain TAR) read 1G uncapped low-salt monomer 0.05; 3G capped high-salt dimer 0.03.
C40 (domain TAR) read 1G uncapped low-salt monomer 0.05; 3G capped high-salt dimer 0.03.
C44 (domain TAR) read 1G uncapped low-salt monomer 0.05; 3G capped high-salt dimer 0.03.
A46 (domain TAR) read 1G uncapped low-salt monomer 0.09; 3G capped high-salt dimer 0.03.
A47 (domain TAR) read 1G uncapped low-salt monomer 0.24; 3G capped high-salt dimer 0.11.
C48 (domain TAR) read 1G uncapped low-salt monomer 0.14; 3G capped high-salt dimer 0.03.
A50 (domain TAR) read 1G uncapped low-salt monomer 0.26; 3G capped high-salt dimer 0.11.
A54 (domain TAR) read 1G uncapped low-salt monomer 0.22; 3G capped high-salt dimer 0.12.
A55 (domain TAR) read 1G uncapped low-salt monomer 0.52; 3G capped high-salt dimer 0.19.
C56 (domain TAR) read 1G uncapped low-salt monomer 0.18; 3G capped high-salt dimer 0.03.
C57 (domain TAR) read 1G uncapped low-salt monomer 0.61; 3G capped high-salt dimer 0.03.
C58 (domain PolyA) read 1G uncapped low-salt monomer 0.17; 3G capped high-salt dimer 0.03.
A59 (domain PolyA) read 1G uncapped low-salt monomer 0.45; 3G capped high-salt dimer 0.68.
C60 (domain PolyA) read 1G uncapped low-salt monomer 0.24; 3G capped high-salt dimer 0.60.
C63 (domain PolyA) read 1G uncapped low-salt monomer 0.12; 3G capped high-salt dimer 0.49.
A66 (domain PolyA) read 1G uncapped low-salt monomer 0.88; 3G capped high-salt dimer 0.82.
A67 (domain PolyA) read 1G uncapped low-salt monomer 0.64; 3G capped high-salt dimer 0.68.
C69 (domain PolyA) read 1G uncapped low-salt monomer 0.05; 3G capped high-salt dimer 0.11.
C70 (domain PolyA) read 1G uncapped low-salt monomer 0.05; 3G capped high-salt dimer 0.08.
C72 (domain PolyA) read 1G uncapped low-salt monomer 0.11; 3G capped high-salt dimer 0.13.
A73 (domain PolyA) read 1G uncapped low-salt monomer 0.05; 3G capped high-salt dimer 0.04.
A74 (domain PolyA) read 1G uncapped low-salt monomer 0.74; 3G capped high-salt dimer 0.76.
A76 (domain PolyA) read 1G uncapped low-salt monomer 0.30; 3G capped high-salt dimer 0.24.
A77 (domain PolyA) read 1G uncapped low-salt monomer 0.70; 3G capped high-salt dimer 0.74.
A78 (domain PolyA) read 1G uncapped low-salt monomer 0.74; 3G capped high-salt dimer 0.77.
C80 (domain PolyA) read 1G uncapped low-salt monomer 0.34; 3G capped high-salt dimer 0.25.
C84 (domain PolyA) read 1G uncapped low-salt monomer 0.52; 3G capped high-salt dimer 0.39.
C85 (domain PolyA) read 1G uncapped low-salt monomer 0.30; 3G capped high-salt dimer 0.26.

5 of these entries, quoted again:

| position | domain | 1G uncapped low-salt monomer | 3G capped high-salt dimer |
|---|---|---|---|
| A34 | TAR | 1.00 | 1.05 |
| A47 | TAR | 0.24 | 0.11 |
| C57 | TAR | 0.61 | 0.03 |
| A66 | PolyA | 0.88 | 0.82 |
| A55 | TAR | 0.52 | 0.19 |

Reference: Ye et al. 2022, doi:10.1038/s41594-022-00746-2.